Measured values published in PubChem BioAssay AID1963822 (ICCB-Longwood Screening Facility, Harvard Medical School, 2024).
The entries are a selection whose mix differs from that of the whole data set. Activity calls are given as the source filed them. No rule for the calls is given here.

test: anaerobic choline-dependent bacterial growth inhibition – minimal medium, absorbance (AID 1963822); conditions: Gram-negative bacterium anaerobic choline minimal medium, stronger effect = lower value

Row | SMILES | z-score
1 | CN(C(=O)Cc1ccccc1)[C@@H]1CC[C@]2(CCCO2)C[C@H]1N1CCCC1 | inactive: -0.03
2 | NC(=O)Nc1ccc([As](=O)(O)O)cc1 | inactive: 0.43
3 | CN(C(=O)Cc1ccc(Cl)c(Cl)c1)[C@@H]1CC[C@]2(CCCO2)C[C@H]1N1CCCC1 | inactive: 0.19
4 | CN(C(=O)Cc1ccc(Cl)c(Cl)c1)[C@@H]1CCCC[C@H]1N1CCCC1 | inactive: 0.54
5 | CN(C)CCS | inactive: 0.78
6 | O=C(O[C@H]1CN2CCC1CC2)C1NCc2ccccc2[C@@H]1c1ccccc1 (stereo not given in full) | inactive: 0.68
7 | O=P(O)(O)F | inactive: 0.31
8 | C/C1=C2N=C(/C=C3N=C(/C(C)=C4\[N-][C@@](C)([C@@H]5N=C1[C@](C)(CCC(=O)NC[C@@H](C)OP(=O)([O-])O[C@H]1[C@@H](O)[C@@H](n6cnc7cc(C)c(C)cc76)O[C@@H]1CO)[C@H]5CC(N)=O)[C@@](C)(CC(N)=O)[C@@H]4CCC(N)=O)[C@@](C)(CC(N)=O)[C@@H]\3CCC(N)=O)C(C)(C)[C@@H]/2CCC(N)=O.[C-]#N.[Co+3] | inactive: 0.57
9 | CN(C(=O)Cc1ccc(Cl)c(Cl)c1)[C@@H]1CCCC[C@@H]1N1CCCC1 | inactive: -0.12
10 | O=C(OC1CN2CCC1CC2)c1ccccc1 (stereo not given) | inactive: 0.59
